Screening data, single-dose tests

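Whole-cell growth test on Mycobacterium tuberculosis, read after 3 days in glucose-containing 7H9 medium; the read-out is not stated. Concentration: 500 µM. The record gives no direction; compounds that gave an IC50 in retests scored well above the rest, so higher reads as more growth inhibition. Size under these conditions: about 18,000 compounds, about 1,400 of them at 50% or above in at least one test.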

The filed quantity is “Percent Effect” (%).
The record does not define 0% and 100%; most values in the screen are far below 50% and negative numbers occur (in some assays of this library far below -100).
Many other results are left out here, so strong results are more common than in the screen.

{"structure": "O=C(CSCc1ccc(Cl)s1)N1CCOCC1", "percent effect": 58.99}
{"structure": "Cc1csc(CNC(=O)NC(C)Cn2cccn2)n1", "stereo": "stereo not drawn", "percent effect": -1.653}
{"structure": "COc1cccc(Nc2ncnc(N)n2)c1", "percent effect": 28.88}
{"structure": "CNC(=O)CCN1CCC(=Cc2ccccc2)CC1", "percent effect": 64.18}
{"structure": "NCCC1C(=O)Nc2ccccc21", "stereo": "stereo not drawn", "percent effect": 20.91}
{"structure": "O=C(c1cnn(-c2ccccc2)c1)N1CCCCC1", "percent effect": -15.41}
{"structure": "NC1CCN(C(=O)c2cccnc2)C1", "stereo": "stereo not drawn", "percent effect": 6.813}
{"structure": "NCCNC(=O)c1ccno1", "percent effect": 35.9}
{"structure": "CCN(CCn1cccn1)C(=O)[C@H](N)c1ccccc1", "percent effect": 14.38}
{"structure": "O=C(NCCc1ccc(F)c(F)c1)N1CCCC(O)C1", "stereo": "stereo not drawn", "percent effect": 70.31}
{"structure": "NCCc1ccc(-n2cccn2)cc1", "percent effect": 73.55}
{"structure": "CC1(C)CN(C(=O)C2CC2)CCO1", "percent effect": 2.562}
{"structure": "NCC(c1ccco1)N1CCCCC1", "stereo": "stereo not drawn", "percent effect": 4.159}
{"structure": "Cc1cc(CN2CCC(C(=O)NCC(C)O)CC2)on1", "stereo": "stereo not drawn", "percent effect": 6.612}
{"structure": "OCC(O)CSCCc1ccccc1Cl", "stereo": "stereo not drawn", "percent effect": 57.09}
{"structure": "Cc1ccc(NS(C)(=O)=O)cc1N1CCCC1=O", "percent effect": 5.548}
{"structure": "CCOc1ccc(Cl)cc1CNc1nnnn1C", "percent effect": 34.25}
{"structure": "CNC(=O)C(CC(C)C)NC(=O)c1ccccn1", "stereo": "stereo not drawn", "percent effect": 4.143}
{"structure": "COc1c(F)cccc1CN1C[C@H](O)[C@@H](N(C)C)C1", "percent effect": 13.44}
{"structure": "CCOC(=O)c1ncsc1Cl", "percent effect": 15.56}
{"structure": "CCOCCC1(N)CCCC1", "percent effect": 9.705}
{"structure": "CCn1ccc(CN2CC3(CCNCC3)OC2=O)n1", "percent effect": 10.27}
{"structure": "CCn1c(CN(C)CCCO)nnc1[C@H]1C[C@@H](N)C1", "percent effect": 0.2832}
{"structure": "CNCC(=O)N1CCC(Cc2cccc(C(N)=O)c2)C1", "stereo": "stereo not drawn", "percent effect": 28.26}
{"structure": "COCCNC(=O)c1csc(-c2ccco2)n1", "percent effect": 41.01}
{"structure": "COc1ccc(N2CCNC(C)C2)cc1", "stereo": "stereo not drawn", "percent effect": 30.82}
{"structure": "Cc1cc(NC(=O)COc2ccc3c(c2)OCO3)no1", "percent effect": -8.058}
{"structure": "Cc1nnc(SCCO)s1", "percent effect": 2.887}
{"structure": "COc1ncccc1C(=O)NCC(=O)N1CCCC1", "percent effect": 8.178}
{"structure": "CC(Sc1nccn1C1CC1)C(=O)NC(N)=O", "stereo": "stereo not drawn", "percent effect": 23.15}
{"structure": "O=C(CN1CCCN(CC2CCC2)CC1)N1CCCC1", "percent effect": -3.044}
{"structure": "Cc1ccc(C(=O)NC2CCN(CC(N)=O)CC2)cc1", "percent effect": 9.581}
{"structure": "O=C(CCN1CCC(O)(CO)C1)Nc1cccc(Cl)c1", "stereo": "stereo not drawn", "percent effect": 25.46}
{"structure": "CN(C)C(=O)CN1CCC(CN)CC1", "percent effect": -1.532}
{"structure": "Cc1nccc(C(=O)Nc2ccccn2)n1", "percent effect": 6.614}
{"structure": "COc1ncc(N)c(C)c1Br", "percent effect": -41.97}
{"structure": "Cc1cc(N)n(CC(=O)NCC2CCCOC2)n1", "stereo": "stereo not drawn", "percent effect": 1.604}
{"structure": "Cc1csc(CNC(=O)c2cc[nH]n2)n1", "percent effect": 1.911}
{"structure": "OCC(O)CSCc1ccc(F)cc1", "stereo": "stereo not drawn", "percent effect": 25.72}
{"structure": "CC(=O)NC(C(=O)Nc1ccc(N(C)C)nc1)C(C)C", "stereo": "stereo not drawn", "percent effect": 0.4217}
{"structure": "CCc1cnc(NCCCN2CCN(C)CC2)nc1", "percent effect": 14.88}
{"structure": "O=S1(=O)CCNCC12CCCCC2", "percent effect": -5.573}
{"structure": "CC(OCC(F)(F)F)C(=O)Nc1cnn(C)c1", "stereo": "stereo not drawn", "percent effect": 5.528}
{"structure": "CC(C)C1CN(C)CCN1Cc1ccncc1", "stereo": "stereo not drawn", "percent effect": -1.688}
{"structure": "NC(=O)Cc1csc(-c2ccco2)n1", "percent effect": 21.87}
{"structure": "NCC(O)c1cccc(F)c1", "stereo": "stereo not drawn", "percent effect": 20.81}

The last 3 entries again:

| structure | percent effect |
|---|---|
| `CC(C)C1CN(C)CCN1Cc1ccncc1` (stereo not drawn) | -1.688 |
| `NC(=O)Cc1csc(-c2ccco2)n1` | 21.87 |
| `NCC(O)c1cccc(F)c1` (stereo not drawn) | 20.81 |

Measurements from “University of Dundee, Small-Polar-MMV Screening Library” (2021), ChEMBL document CHEMBL3988442.